{"source": "paper PMC12615485", "about": "“New dengue virus inhibitors targeting NS3-NS5 interaction identified by in silico screening” (Frontiers in Microbiology, 2025)"}
{"system": "DENV-2 NGC strain", "test": "Plaque reduction assay (PRA) in Vero cells", "assay_type": "cell-based", "details": "best analogues of hit 3; ratio between CC50 and EC50"}
{"compound": "Cc1ccc(NC(=S)NNC(=O)c2ccccn2)cc1", "note": "[Compound 64]", "SI (selectivity index)": 19}
{"compound": "Cc1ccc(NC(=S)NNC(=O)c2ccc(C(C)(C)C)cc2)cc1", "note": "[Compound 72]", "SI (selectivity index)": 75}
{"compound": "CN(C)c1ccc(NC(=S)NNC(=O)c2ccccn2)cc1", "note": "[Compound 69]", "SI (selectivity index)": 6}
